Compound potency records, mixed from different reports. Data source: NIAID ChemDB in PubChem.

Shared fields: growth or infection tests; agent: Candida albicans; read-out: MIC90

An empty or dashed field is not shown. MIC50, MIC90 and the like: level of inhibition, or share of isolates inhibited. Rows are shuffled and stem from different studies.

compound | strain | read by | conditions | result
C[C@H]1[C@H](O)[C@@H](C)/C=C/C=C/C=C/C=C/C=C/C=C/C=C/[C@H](O[C@@H]2O[C@H](C)[C@@H](O)[C@H](N)[C@@H]2O)C[C@@H]2O[C@](O)(C[C@@H](O)C[C@@H](O)CC[C@H](O)[C@@H](O)C[C@@H](O)CC(=O)O[C@H]1C)C[C@H](O)[C@H]2C(=O)O |  |  |  | 1 µg/mL
CCCCCOc1ccc(-c2ccc(-c3ccc(C(=O)N[C@H]4C[C@@H](O)[C@@H](O)NC(=O)[C@@H]5[C@@H](O)[C@@H](C)CN5C(=O)[C@H]([C@H](C)O)NC(=O)[C@H]([C@H](O)[C@@H](O)c5ccc(O)cc5)NC(=O)[C@@H]5C[C@@H](O)CN5C(=O)[C@H]([C@H](C)O)NC4=O)cc3)cc2)cc1 | 63 isolates |  |  | 1 µg/mL
CC(C)C(CCC(C)C1CCC2C3CC=C4C[C@@H](O)CCC4(C)C3CCC12C)NS(=O)(=O)O | A13803 |  |  | 3.13 µg/mL
Cc1c2n(c3ccccc13)CCN(CC#N)C2 |  |  |  | 250 µg/mL
CCC(C)CC(C)CCCCCCCCC(=O)N[C@H]1C[C@@H](O)[C@H](NCCN)NC(=O)[C@@H]2[C@@H](O)CCN2C(=O)[C@H]([C@H](O)CCN)NC(=O)[C@H]([C@H](O)[C@@H](O)c2ccc(O)cc2)NC(=O)[C@@H]2C[C@@H](O)CN2C(=O)[C@H]([C@@H](C)O)NC1=O | 10 isolates azole-resistant |  |  | 0.4 µg/mL
CC[C@@H]([C@H](C)O)n1ncn(-c2ccc(N3CCN(c4ccc(OC[C@@H]5CO[C@@](Cn6cncn6)(c6ccc(F)cc6F)C5)cc4)CC3)cc2)c1=O | 30 isolates |  |  | 1 µg/mL
O=[N+]([O-])/C(Br)=C\c1ccc(Br)o1 | 31 strains |  |  | 2.9 µg/mL
COc1cc(O)c2c(c1)C(=O)c1c(cc3c(c1O)-c1c(cc(C)c(C(=O)NC(CO)C(=O)O)c1O)[C@H](OC1OC(C)C(O)C(OC4OCC(O)C(O)C4O)C1O)C3O)C2=O | 97 isolates |  |  | 4 µg/mL
C=CCc1ccc(OC)c(OC)c1 | 3070 | turbidity |  | 345 µg/mL
COc1cccc(C2NCCn3c2c(C)c2ccccc23)c1 |  |  |  | 250 µg/mL
CCC(C)n1ncn(-c2ccc(N3CCN(c4ccc(OC[C@H]5CO[C@](Cn6cncn6)(c6ccc(Cl)cc6Cl)O5)cc4)CC3)cc2)c1=O |  |  |  | 0.25 µg/mL
Clc1ccc(C(Cn2ccnc2)OCc2csc3c(Cl)cccc23)c(Cl)c1 | 63 isolates | visual reading | 48 h | 4 µg/mL
Cc1ccc(C2NCCn3c2c(C)c2ccccc23)cc1 |  |  |  | 250 µg/mL
CC[C@@H]([C@H](C)O)n1ncn(-c2ccc(N3CCN(c4ccc(OC[C@@H]5CO[C@@](Cn6cncn6)(c6ccc(F)cc6F)C5)cc4)CC3)cc2)c1=O | 156 isolates |  |  | 0.125 µg/mL
CC(=O)N1CCN(c2ccc(OC[C@H]3CO[C@](Cn4ccnc4)(c4ccc(Cl)cc4Cl)O3)cc2)CC1 | 40 isolates azole-susceptible |  |  | 0.01 µg/mL
OC[C@@H]1CO[C@](Cn2ccnc2)(c2ccc(-c3ccccc3)cc2)O1 | 44 strains |  |  | 128 µg/mL
c1csc(C(c2cccc3ccccc23)n2ccnc2)c1 | 23 strains |  |  | 16 µg/mL
CCC(C)n1ncn(-c2ccc(N3CCN(c4ccc(OC[C@H]5CO[C@](Cn6cncn6)(c6ccc(Cl)cc6Cl)O5)cc4)CC3)cc2)c1=O | Fluconazole-resistant 4 isolates pooled |  |  | >8 µg/mL
Clc1cc(Cl)c(OCC#CI)cc1Cl | 13 strains |  |  | 6.25 µg/mL
CCC(C)CC(C)CCCCCCCCC(=O)N[C@H]1C[C@@H](O)[C@H](NCCN)NC(=O)[C@@H]2[C@@H](O)CCN2C(=O)[C@H]([C@H](O)CCN)NC(=O)[C@H]([C@H](O)[C@@H](O)c2ccc(O)cc2)NC(=O)[C@@H]2C[C@@H](O)CN2C(=O)[C@H]([C@@H](C)O)NC1=O | 206 isolates |  |  | 0.125 µg/mL
c1ccc2c(C(c3ccc(-n4cccc4)cc3)n3ccnc3)cccc2c1 | 23 strains |  |  | 8 µg/mL
CCC(C)n1ncn(-c2ccc(N3CCN(c4ccc(OC[C@H]5CO[C@](Cn6cncn6)(c6ccc(Cl)cc6Cl)O5)cc4)CC3)cc2)c1=O | 2453 strains |  |  | 0.12 µg/mL
c1ccc(C(c2ccc3ccccc3c2)n2ccnc2)cc1 | 23 strains |  |  | 16 µg/mL
CC(C)C(CCC(C)C1CC[C@@]2(C)C3=C(CCC12C)C1(C)CC[C@H](O)C(C)(C)C1CC3)NCc1ccccc1 | A.10231 |  |  | 100 µg/mL
CS(=O)(=O)OCC1COC(Cn2ccnc2)(c2ccc(-c3ccccc3)cc2)O1 | 44 strains |  |  | 256 µg/mL
CC(C)C(N)CCC(C)C1CCC2C3CC=C4C[C@@H](O)CCC4(C)C3CCC12C | A11651 |  |  | 3.13 µg/mL
c1ccc(C(c2cccc3ccccc23)n2ccnc2)cc1 | 23 strains |  |  | 32 µg/mL
O[C@](Cn1cncn1)(Cn1cnc(/C=C/c2ccc(OCC(F)(F)C(F)F)cc2)n1)c1ccc(F)cc1F | 50 strains (fluconazole-resistant) |  |  | 2 µg/mL
CS(=O)(=O)OC[C@H]1CO[C@](Cn2ccnc2)(c2ccc(-c3ccccc3)cc2)O1 | 44 strains |  |  | >256 µg/mL
Cc1c2n(c3ccccc13)CCNC2c1ccc([N+](=O)[O-])cc1 |  |  |  | 250 µg/mL
O=C(OCC1COC(Cn2ccnc2)(c2ccc(-c3ccccc3)cc2)O1)c1ccccc1 | 44 strains |  |  | 64 µg/mL
c1ccc(-c2ccc(C(c3cccc4ccccc34)n3ccnc3)cc2)cc1 | 23 strains |  |  | 256 µg/mL
CCC(C)n1ncn(-c2ccc(N3CCN(c4ccc(OC[C@H]5CO[C@](Cn6cncn6)(c6ccc(Cl)cc6Cl)O5)cc4)CC3)cc2)c1=O | TIMM3164 (azole-resistant) |  |  | 0.05 µg/mL
CC(C)C(N)CCC(C)C1CC[C@@]2(C)C3=C(CCC12C)C1(C)CC[C@H](O)C(C)(C)C1CC3 | A11651 |  |  | 100 µg/mL